According to PMC10525570, “Antiviral Activity of Anthranilamide Peptidomimetics against Herpes Simplex Virus 1 and a Coronavirus” (Antibiotics, 2023):

Assays:
HSV-1 = test: Virus pre-treatment (direct virus inactivation) plaque assay, HSV-1; type: cell-based, herpes simplex virus 1; details: ratio of CC50 (Vero cells) to IC50 (HSV-1)
Method: (§1) The peptidomimetics were evaluated for their antiviral activity using three different assays: virus pre-treatment, cell pre-treatment, and post-treatment assays, with the main distinction being the timing of the compound addition. Cells were seeded in 24-well plates at a density of 2.5 × 10^5 cells/well and incubated for 48 h at 37 °C. In all assays, the compounds were added to DMEM medium in the absence of fetal bovine serum (FBS). All experiments were performed in duplicate with two independent replicates. The inhibitory effect on viral infectivity was determined by comparing the number of plaques in wells treated with the test compounds (peptidomimetics) to the plaques observed in the control wells (cells infected with the virus without test compounds).
(§2) Virus pre-treatment assay: In this assay, the test compounds were added to the virus (1 × 10^3 PFU/mL) and incubated for 3 h at 37 °C. After incubation, each mixture (virus/peptide) was diluted in DMEM medium containing 10% FBS to neutralize the peptides or mimics. The dilutions were then added to the cell monolayers for 1 h, followed by the addition of an agar overlay containing 1% agar. The cells were further incubated for 72 h, after which they were fixed, stained, and the number of plaques was counted.

MHV-1 = test: Virus pre-treatment (direct virus inactivation) plaque assay, MHV-1; type: cell-based, Murine hepatitis virus 1; details: ratio of CC50 (A9 cells) to IC50 (MHV-1)
Method: as §1, §2

SMILES	HSV-1 (Vero Cells) Therapeutic Index (HSV-1)	MHV-1 (A9 Cells) Therapeutic Index (MHV-1)
N=C(N)NCCNC(=O)C(Cc1c[nH]c2ccccc12)NC(=O)c1cc(Br)ccc1NC(=O)c1ccc2ccccc2c1 (stereo not drawn) [Compound 7]	3.87	–
N=C(N)NCCNC(=O)C(Cc1c[nH]c2ccccc12)NC(=O)c1cc(Cl)ccc1NC(=O)c1ccc2ccccc2c1 (stereo not drawn) [Compound 9]	3.03	–
NCCNC(=O)C(Cc1c[nH]c2ccccc12)NC(=O)c1cc(-c2ccc3ccccc3c2)ccc1N (stereo not drawn) [Compound 11]	0.48	9.41
NCCNC(=O)C(Cc1c[nH]c2ccccc12)NC(=O)c1cc(-c2ccccc2-c2ccccc2)ccc1N (stereo not drawn) [Compound 14]	1.16	1.6
NCCCCC(N)C(=O)NCCNC(=O)C(Cc1c[nH]c2ccccc12)NC(=O)c1cc(Br)ccc1NC(=O)c1ccc2ccccc2c1 (stereo not drawn) [Compound 15]	–	5.65
NCCCCC(N)C(=O)NCCNC(=O)C(Cc1c[nH]c2ccccc12)NC(=O)c1cc(Br)ccc1NC(=O)c1ccc(-c2ccccc2)cc1 (stereo not drawn) [Compound 16]	–	3.62
NCCCCC(N)C(=O)NCCNC(=O)C(Cc1c[nH]c2ccccc12)NC(=O)c1cc(Br)ccc1NC(=O)c1cccc(-c2ccccc2)c1 (stereo not drawn) [Compound 17]	–	9.71
